Results of unrelated studies side by side (data: NIAID ChemDB).

All rows: whole-cell or culture tests; species: Mycobacterium tuberculosis

Percent inhibition refers to the dose given; in toxicity tests it is the harm to the cells. ECn: concentration that inhibits the pathogen or its effect by n%. Blank or dashed fields: not listed here. MIC bound comes from a single tested concentration. Conditions beyond the fields shown may differ between rows.

smiles | strain | dose | read by | endpoint | cell line | value
CCOC(=O)Nc1ccc(N=Cc2ccccc2)cn1 | H37Rv | - | - | EC50 | - | >12.5 µg/mL
CC1CN(c2cc3c(cc2F)c(=O)c(C(=O)O)cn3-c2ccc(F)cc2F)CCN1 | ATCC 35828 | - | - | MIC | - | 1 µg/mL
CCN(CC)CC(O)CNc1ccc(C)c2sc3ccc(Cl)cc3c(=O)c12 | H37Rv | - | BACTEC | MIC bound | - | ≤12.5 µg/mL
CC(C)c1ccc2c(c1)CC[C@H]1[C@](C)(CNCCN[C@@H]3C[C@@H]4C[C@H]([C@H]3C)C4(C)C)CCC[C@]21C | - | - | - | MIC | - | 50 µM
CC[C@H]1OC(=O)[C@H](C)[C@@H](O[C@H]2C[C@@](C)(OC)[C@@H](O)[C@H](C)O2)[C@H](C)[C@@H](O[C@@H]2O[C@H](C)C[C@H](N(C)C)[C@H]2O)[C@](C)(OC)C[C@@H](C)C(=O)[C@H](C)[C@@H](O)[C@]1(C)O | ATCC 35826 | - | - | MIC | - | 8 µg/mL
CCOC(=O)Nc1cc(NC(c2ccccc2)c2ccccc2)c2ncc(=O)[nH]c2n1 | H37Rv | - | - | EC50 | - | >12.5 µg/mL
CC(C)c1ccc2c(c1)CC[C@H]1[C@](C)(CNCCNCC(c3ccccc3)c3ccccc3)CCC[C@]21C | - | - | - | MIC | - | 12.5 µM
OCCCCCNCCNCC12CC3CC(CC(C3)C1)C2 | - | - | - | MIC | - | 50 µM
NC[C@H]1O[C@H](O[C@H]2[C@H](O)[C@@H](O[C@H]3O[C@H](CO)[C@@H](O)[C@H](N)[C@H]3O)[C@H](N)C[C@@H]2N)[C@H](O)[C@@H](O)[C@@H]1O | TN1521 (BU) | - | - | MIC | - | >256 µg/mL
CCOC(=O)C1CSC(CCCOCc2ccccc2)C1=O | H37Rv | - | - | MIC | - | 50 µg/mL
c1ccc(CCCNCCNC23CC4CC(CC(C4)C2)C3)cc1 | - | - | - | MIC | - | 37.5 µM
O=C(NCCO)N/N=C(\CCN1CCCCC1)c1ccc([N+](=O)[O-])o1 | H37Rv | 12.5 µg/mL | BACTEC | inhibition | - | 14%
CN1c2ccccc2Sc2ccccc21 | H37Rv | - | - | MIC | - | >100 µg/mL
CCOc1ccccc1CNCCNCCNc1ccccc1 | - | - | - | MIC | - | 25 µM
Cl.NCCc1cccs1 | H37Rv | - | - | MIC | - | 100 µg/mL
O=C(NNC(=O)c1ccc2ccccc2c1)c1ccc(Br)cc1 | H37Rv | - | BACTEC | MIC bound | - | >12.5 µg/mL
CC1COc2c(N3CCN(C)CC3)c(F)cc3c(=O)c(C(=O)O)cn1c23 | ATCC 35822 | - | - | MBC | - | 2 µg/mL
CCCCCCCCCCCCCCCCCCOc1ccccc1N | H37Rv | - | - | MIC | - | >100 µg/mL
O=C1C(=O)c2c(nc3ccccn23)-c2ccccc21 | H37Rv | - | - | MIC | VERO | 0.39 µg/mL
OC1C(O)C(O)C(O)C(O)C1O | H37Rv | - | - | MIC | - | >100 µg/mL
CCOC(=O)Nc1cc(N[C@H](C)C(O)c2ccc(O)cc2)c([N+](=O)[O-])c(N)n1 | H37Rv | - | - | EC50 | - | >12.5 µg/mL
CC1(C)[C@H]2CC[C@@H](CNCCN[C@H]3C[C@H]4CC[C@]3(C)C4(C)C)[C@@H]1C2 | - | - | - | MIC | - | 3.13 µM
Cc1c(C(=O)/C=C/c2ccccc2[N+](=O)[O-])[n+](=O)c2ccccc2n1[O-] | ETA-R | - | - | MIC | - | 6.3 µg/mL
C[C@@H]1CN(c2c(F)c(N)c3c(=O)c(C(=O)O)cn(C4CC4)c3c2F)C[C@H](C)N1 | ATCC 35827 | - | - | MIC | - | 0.06 µg/mL
CO[C@H]1/C=C/O[C@@]2(C)Oc3c(C)c(O)c4c(O)c(c(/C=N/N5CCN(C/C=C/c6ccccc6)CC5)c(O)c4c3C2=O)NC(=O)/C(C)=C\C=C\[C@H](C)[C@H](O)[C@@H](C)[C@@H](O)[C@@H](C)[C@H](OC(C)=O)[C@@H]1C | 2624 (rifampin-sensitive) | - | - | MBC | - | 0.1 µg/mL
CCOC(=O)/C(C#N)=C\c1c[nH]c2ccccc12 | H37Rv | - | - | MIC | - | >100 µg/mL
O=c1[nH]n2c(=O)cc[nH]c2c1-c1nnns1 | H37Rv | - | BACTEC | MIC bound | - | >12.5 µg/mL
CCCCC(CC)CN1CN(CC(CC)CCCC)CC(C)(NCCNCCF)C1 | - | - | - | MIC | - | 12.5 µM
CC1=C(N)C(=O)C2=C(C1=O)N1C[C@H]3[C@H](N3C)[C@]1(O)[C@@H]2COC(N)=O | PAS-R | - | - | MIC | - | 1.6 µg/mL
COc1ccccc1CCNCCNC/C=C(\C)CCC=C(C)C | - | - | - | MIC | - | 50 µM
CO[C@H]1/C=C/O[C@@]2(C)Oc3c(C)c(O)c4c(=O)c(c5oc6cc(N7CCN(CC(C)C)CC7)cc(=O)c6nc5c4c3=C2O)NC(=O)/C(C)=C\C=C\[C@H](C)[C@H](O)[C@@H](C)[C@@H](O)[C@@H](C)[C@H](OC(C)=O)[C@@H]1C | 2831 (rifampin-sensitive) | - | - | MIC | - | 0.012 µg/mL
Clc1ccc(CCNCCNC2CCCCCCC2)c(Cl)c1 | - | - | - | MIC | - | 50 µM
O=C1CC(c2ccccc2)Oc2ccc(Cl)cc21 | H37Rv | - | - | EC50 | - | >12.5 µg/mL
O=C1CCCC(=O)N1c1ccccc1 | H37Rv | - | - | MIC | - | >100 µg/mL
O=C1CC(c2ccccc2)Oc2cc(I)ccc21 | - | 12.5 µg/mL | - | inhibition | - | 20%
CC(C)=CCC/C(C)=C/CNCCNCc1cccc2ccccc12 | - | - | - | MIC | - | 50 µM
CC(=O)C(N=Nc1ccc(S(=O)(=O)Nc2ccccn2)cc1)C(=O)Nc1ccc(Cl)cc1 | H37Rv | 6.25 µg/mL | resazurin | inhibition | - | 29%
C[C@H]1C[C@H](N)CN1c1cc2c(cc1F)c(=O)c(C(=O)O)cn2-c1ccc(F)cc1F | H37Rv | - | - | MBC | - | >8 µg/mL
Cc1ccccc1-n1c(SCC(=O)NC(=O)Nc2cccc(Cl)c2)nc2c(Br)cc(Br)cc2c1=O | H37Rv | - | BACTEC | MIC bound | - | ≤12.5 µg/mL
CCOC(=O)N(c1ccccc1)c1cc(Cl)c([N+](=O)[O-])c(N)n1 | H37Rv | 12.5 µg/mL | - | inhibition | - | 0%
COc1ccc(CNCCNCCc2ccc(Cl)cc2Cl)cc1OC | - | - | - | MIC | - | 50 µM
OPc1ccc(Br)cc1 | H37Rv | - | - | MIC | - | >100 µg/mL
CN(C)CC1CCCC(CN2CCCCC2)C1=O | H37Rv | - | BACTEC | MIC bound | - | ≤12.5 µg/mL
COc1ccc(O)c(N=Nc2ccccc2C(=O)O)c1 | H37Rv | - | - | MIC | - | >100 µg/mL
CO[C@H]1/C=C/O[C@@]2(C)Oc3c(C)c(O)c4c(=O)c(c5oc6cc(N7CCN(CC(C)C)CC7)cc(=O)c6nc5c4c3=C2O)NC(=O)/C(C)=C\C=C\[C@H](C)[C@H](O)[C@@H](C)[C@@H](O)[C@@H](C)[C@H](OC(C)=O)[C@@H]1C | TN657 | - | - | MIC | - | 1 µg/mL
Cc1ccc(Nc2cc(Br)c3c4c(cc(=O)n3C)-c3ccccc3C(=O)c24)cc1 | H37Rv | - | - | MIC | - | >100 µg/mL
Cc1ccc(CNCCNCc2ccco2)cc1 | - | - | - | MIC | - | 25 µM
CCCCC(CC)CN1CN(CC(CC)CCCC)CC(C)(NCCNCc2ccc(F)cc2)C1 | - | - | - | MIC | - | 50 µM
CCOC(=O)Nc1cc(NC(C)C(=O)c2ccccc2)c([N+](=O)[O-])cn1 | H37Rv | - | - | EC50 | - | >12.5 µg/mL
CC(=O)Nc1cc(C)ccc1O | H37Rv | - | - | MIC | - | >100 µg/mL
COC(=O)c1cnccn1 | H37Rv | 12.5 µg/mL | BACTEC | inhibition | - | 8%
O=C1c2cccc(S(=O)(=O)[O-])c2C(=O)c2cccc(S(=O)(=O)[O-])c21.[K+].[K+] | H37Rv | - | - | MIC | - | >100 µg/mL
CC[C@@H](CO)NCCN[C@@H](CC)CO | MDR11 | - | broth dilution / resazurin | MIC | - | 8 µg/mL
COc1ccc(OC)c(NC(=O)Sc2c(Cl)c(Cl)nc(Cl)c2Cl)c1 | H37Rv | 6.25 µg/mL | resazurin | inhibition | - | 50%
CCN(CC)C(=S)S | H37Rv | - | - | MIC | - | >100 µg/mL
CC/C(=N\NC(=O)c1ccncc1)c1ccc(Cl)cc1 | H37Rv | - | resazurin | MIC | - | 0.1 µg/mL
CC(Oc1ccc(C(C)(C)C)cc1)C(=O)Nc1ccc(NC(=O)CC(=O)c2ccccc2)cc1 | H37Rv | - | - | MIC | - | >100 µg/mL
NC(=O)c1csc(N)n1 | H37Rv | 12.5 µg/mL | BACTEC | inhibition | - | -11%
CC(C)c1ccc2c(c1)CC[C@H]1[C@](C)(CNCCNCCCO)CCC[C@]21C | - | - | - | MIC | - | 25 µM
NC(=O)C1CCC1C(N)=O | H37Rv | - | - | MIC | - | >100 µg/mL
N=C(N)CCNC(=O)C1CCC(N)=N1 | H37Rv | - | BACTEC | MIC bound | - | >12.8 µg/mL
CCCCCNCCNCCC1=CCCCC1 | - | - | - | MIC | - | 25 µM
CC(=O)NCCNS(=O)(=O)c1ccc(C)cc1 | H37Rv | - | - | MIC | - | >100 µg/mL
COC1C[C@H](C)[C@@H](OC)C2=CC(=O)C=C(NC(=O)/C(C)=C/C=C\[C@H](C)C(OC(N)=O)/C(C)=C/[C@@H](C)[C@@H]1OC)C2=O | ETA-R | - | - | MIC | - | 12.5 µg/mL
CCCCC(CC)CN1CN(CC(CC)CCCC)CC(C)(NCCNCC2(O)CCCCC2)C1 | - | - | - | MIC | - | 6.25 µM
S=C(SSC(=S)N1CCCCC1)N1CCCCC1 | H37Rv | - | - | MIC | - | >100 µg/mL
C/C(=N/NC(=S)N1CCC(c2ccccc2)CC1)c1nccnc1C | H37Rv | - | - | MIC | - | 12.5 µg/mL
Cl.Nc1ccc(N2CCCCC2)cc1 | H37Rv | - | - | MIC | - | 100 µg/mL
CCOC(=O)C1C(c2ccc(OC)cc2)C(C(=O)OCC)C(O)(C(F)(F)F)OC1(O)C(F)(F)F | H37Rv | - | BACTEC | MIC | - | >4 µg/mL
O=c1cc(-c2cccc(-c3cccc4c(=O)cc(-c5ccccc5)oc34)c2)oc2ccccc12 | H37Rv | - | - | EC50 | - | ~12.5 µg/mL
O=c1[nH]c(-c2ccccc2)cc(-c2ccccc2)c1-c1ccc([N+](=O)[O-])cc1 | H37Rv | - | - | MIC | - | >100 µg/mL
Nc1cccc(/C=C/C(=O)c2ccccc2O)c1 | H37Rv | 12.5 µg/mL | - | inhibition | - | 11%
CCOc1cc(/C=N/NC(=O)C(=O)N/N=C/c2ccc(O)c(OCC)c2)ccc1O | H37Rv | 12.5 µg/mL | BACTEC | inhibition | - | 10%
O=S(=O)(Nc1ccccn1)c1cccnc1 | H37Rv | - | - | MIC | - | >100 µg/mL
COC(=O)N1CCC2CCC=C(c3cccc4c3OCO4)C21 | H37Rv | - | resazurin | MIC bound | - | >6.25 µg/mL
C[C@H](O)CNCCNCCC(c1ccccc1)c1ccccc1 | - | - | - | MIC | - | 25 µM

The first 5 rows once more:

smiles | strain | dose | read by | endpoint | cell line | value
CCOC(=O)Nc1ccc(N=Cc2ccccc2)cn1 | H37Rv | - | - | EC50 | - | >12.5 µg/mL
CC1CN(c2cc3c(cc2F)c(=O)c(C(=O)O)cn3-c2ccc(F)cc2F)CCN1 | ATCC 35828 | - | - | MIC | - | 1 µg/mL
CCN(CC)CC(O)CNc1ccc(C)c2sc3ccc(Cl)cc3c(=O)c12 | H37Rv | - | BACTEC | MIC bound | - | ≤12.5 µg/mL
CC(C)c1ccc2c(c1)CC[C@H]1[C@](C)(CNCCN[C@@H]3C[C@@H]4C[C@H]([C@H]3C)C4(C)C)CCC[C@]21C | - | - | - | MIC | - | 50 µM
CC[C@H]1OC(=O)[C@H](C)[C@@H](O[C@H]2C[C@@](C)(OC)[C@@H](O)[C@H](C)O2)[C@H](C)[C@@H](O[C@@H]2O[C@H](C)C[C@H](N(C)C)[C@H]2O)[C@](C)(OC)C[C@@H](C)C(=O)[C@H](C)[C@@H](O)[C@]1(C)O | ATCC 35826 | - | - | MIC | - | 8 µg/mL